This experiment addresses T1, secreted E1E2 with c-Fos/c-Jun leucine zipper scaffold (sE1E2.LZ) (Hepatitis C virus H77; human, limits assumed).
T1 construct: It is written here as the two chains expected after furin cleavage
T1 chain 1: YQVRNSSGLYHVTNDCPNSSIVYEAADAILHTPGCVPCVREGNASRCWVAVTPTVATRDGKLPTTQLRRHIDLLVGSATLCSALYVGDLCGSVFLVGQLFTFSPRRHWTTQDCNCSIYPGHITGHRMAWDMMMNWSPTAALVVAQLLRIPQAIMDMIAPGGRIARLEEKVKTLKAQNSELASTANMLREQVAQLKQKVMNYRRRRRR
T1 chain 2: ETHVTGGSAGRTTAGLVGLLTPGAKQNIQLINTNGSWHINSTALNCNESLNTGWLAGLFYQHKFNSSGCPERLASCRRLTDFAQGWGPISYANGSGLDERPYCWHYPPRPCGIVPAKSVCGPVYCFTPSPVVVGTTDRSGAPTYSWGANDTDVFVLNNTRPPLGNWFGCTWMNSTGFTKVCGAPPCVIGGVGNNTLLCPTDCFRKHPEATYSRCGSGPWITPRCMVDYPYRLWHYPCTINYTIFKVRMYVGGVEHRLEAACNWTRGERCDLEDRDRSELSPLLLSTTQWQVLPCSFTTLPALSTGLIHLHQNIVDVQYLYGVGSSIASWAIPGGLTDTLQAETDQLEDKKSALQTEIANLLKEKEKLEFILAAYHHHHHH
Put plainly: dose-dependent ELISA, antigen captured by GNA lectin. For orientation: ELISA stands for enzyme-linked immunosorbent assay.

B1: HC84.26 (antibody, V domains shown)
VH: QVQLVQSGAEVKKPGSSVKVSCEASGGTLSNYVITWVRQAPGQGLEWMGGFIPTFRTAMYAQGFQGRVTITADESTSIAYMELTNLRSEDTAVYYCARGPLSRGYYDYWGQGTLVTVSS
VL: SYVLTQPPSVSVAPGKTARITCGGNNIGSKSVHWYQQKPGQAPVLVVYDDSDRPSGIPERFSGSNSGNTATLTISRVEAGDEADYYCQVWDSSSVVFGGGTKLTVL
For orientation: Kd means the free concentration of one partner at which half of the binding sites on the other are occupied at equilibrium, for simple one-to-one binding. With B1, the Kd amounted to 2.6 nM.

The values are drawn from patent publication US20240016923A1 (UNIVERSITY OF MARYLAND COLLEGE PARK, published 2024).
